# Data published in patent US9234885B2 (priority 2011, dated 2016).
# System: rVSV-GP-EboV
# Test: rVSV-GP-EboV infectivity in Vero cells
# Assay type: cell-based, Ebola virus
# Conditions: post-infection, time-of-escape experiment
structure (smiles),measurement,value
"CCN(CC)CCO[C@H]1CC[C@@]2(C)C(=CC[C@@H]3[C@@H]2CC[C@]2(C)C(=O)CC[C@@H]32)C1 [U18666A, 3-β-[2-(diethylamino)ethoxy]androst-5-en-17-one]",time by which sensitivity of viral infection to the drug is lost,2 h
